# PSTVd loop 6 mutant pool in Nicotiana benthamiana

Source: Wu et al. 2024 (doi:10.1371/journal.ppat.1012142), supplementary data.

Region: loop 6 of PSTVd (intermediate strain), upper and lower strand joined, each 5' to 3', the first 5 letters being the upper strand, closing pairs included. Wild type: UGACCGCGAG. Varied positions (N): UNNNCGNNNG.

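A pool of all variants was put on leaves of three Nicotiana benthamiana plants. Progeny were sequenced from the inoculated region (day 5), the margin of the inoculated leaf (day 10) and systemic leaves (day 12).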

Numbers give reads per thousand; 0 = not seen among the reads, higher = more abundant.
Each site shows the three plants.
"Pool" is the share in the plasmid pool used as inoculum, on the same scale.
The inoculated region was read from the minus strand, the other sites from the plus strand.

sequence,pool,inoculated region,leaf margin,systemic leaves
UACGCGUGAG,0.288,0.0521 0.0539 0.0369,0 0 0,0 0 0
UACGCGUGCG,0.209,0.0869 0.0180 0.0369,0 0 0.0464,0 0 0
UACGCGUGGG,0.105,0.156 0.0898 0.0738,0.0276 0 0.0232,0 0 0
UACGCGUGUG,0.327,0.0695 0.0719 0.0369,0 0 0,0 0 0
UACGCGUUAG,0.275,0.139 0.108 0.0922,0 0 0,0 0 0
UACGCGUUCG,0.196,0.122 0.108 0.0922,0.0552 0 0,0 0 0
UACGCGUUGG,0.183,0.156 0.0719 0.0922,0 0 0,0 0 0
UACGCGUUUG,0.301,0.122 0.0898 0.0184,0 0 0,0 0 0
UACGCUGUCC,0.0261,0 0 0,0 0 0,0 0 0
UACUCAGCGG,0.0131,0 0 0,0 0 0,0 0 0
UACUCGAAAG,0.131,0.104 0.126 0.111,0 0 0,0 0 0
UACUCGAACG,0.170,0.104 0.0180 0.0922,0 0 0,0 0 0
UACUCGAAGG,0.196,0.0174 0.108 0.0553,0 0 0,0 0 0
UACUCGAAUG,0.235,0.122 0.0719 0.0738,0 0 0,0.0180 0 0
UACUCGACAG,0.170,0.122 0.108 0.129,0 0 0.0232,0 0 0
UACUCGACCG,0.131,0.0869 0.162 0.0738,0 0 0,0 0 0
UACUCGACGG,0.235,0.122 0.0180 0.111,0 0 0.0232,0 0 0
UACUCGACUG,0.288,0.104 0.0898 0.0369,0.0276 0 0,0 0 0
UACUCGAGAG,0.327,0.139 0.126 0.0553,0 0 0.0232,0 0 0
UACUCGAGCG,0.222,0.156 0.0898 0.0738,0 0 0,0 0 0
UACUCGAGGG,0.196,0.209 0.0359 0.0738,0 0 0,0 0 0
UACUCGAGUG,0.275,0.174 0.0898 0.0553,0.0276 0 0,0 0 0
UACUCGAUAG,0.327,0.104 0.108 0.111,0 0 0.139,0 0 0
UACUCGAUCG,0.183,0.0521 0 0.0738,0 0 0,0 0 0
UACUCGAUGG,0.301,0.104 0.0539 0.0184,0 0 0,0 0 0
UACUCGAUUG,0.235,0.0869 0.0180 0.0738,0 0 0,0 0 0
UACUCGCAAG,0.118,0.122 0.162 0.203,0 0 0.0232,0 0 0
UACUCGCACG,0.261,0.0521 0.0898 0.0922,0 0 0,0 0 0
UACUCGCAGG,0.170,0.0869 0.0539 0.184,0 0 0.0232,0 0 0
UACUCGCAUA,0.0131,0 0 0,0 0 0,0 0 0
UACUCGCAUG,0.144,0.122 0.0898 0.0369,0 0 0,0 0 0
UACUCGCCAG,0.144,0.122 0.0898 0.0553,0 0 0.0232,0 0 0
UACUCGCCCG,0.235,0.0695 0.0898 0.0922,0 0 0,0 0 0
UACUCGCCGG,0.131,0.139 0.0539 0.129,0 0 0.0232,0 0 0
UACUCGCCUG,0.144,0.174 0.108 0.0922,0 0.0252 0.0232,0 0 0
UACUCGCGAG,0.118,0.191 0.144 0.240,0.138 0.378 0,0 0 0.0410
UACUCGCGCG,0.222,0.122 0.0898 0.0553,0.0276 0 0,0 0 0
UACUCGCGGG,0.275,0.122 0.108 0.0738,0 0 0,0 0 0
UACUCGCGUG,0.314,0.104 0.108 0.0553,0 0.0504 0.0464,0.0180 0 0
UACUCGCUAG,0.118,0.104 0.0898 0.111,0.0276 0 0,0 0 0
UACUCGCUCG,0.261,0.174 0.0719 0.0738,0 0 0,0 0 0.0205
UACUCGCUGG,0.144,0.122 0.0539 0.0369,0 0 0.0232,0 0 0
UACUCGCUUG,0.353,0.226 0.0180 0,0 0 0,0 0 0
UACUCGGAAG,0.105,0.139 0.108 0.0738,0 0 0,0 0 0
UACUCGGACG,0.261,0.695 0.629 0.443,0.0552 0.0252 0.0696,0 0 0
UACUCGGAGA,0.0392,0 0 0,0 0 0,0 0 0
UACUCGGAGG,0.170,0.0869 0.108 0.0369,0 0 0,0 0 0
UACUCGGAUG,0.209,0.191 0.108 0.148,0.0552 0 0,0 0.0404 0
UACUCGGCAG,0.170,0.851 0.844 0.443,0.166 0.0252 0.0928,0 0 0
UACUCGGCCG,0.105,0.695 0.593 0.498,0.0552 0.0252 0.0464,0 0 0
UACUCGGCGG,0.248,0.122 0.0719 0.0553,0 0 0,0 0 0

Samples held 36,220 to 57,551 reads, so the smallest values rest on one or two reads.
For reference, wild type rose from 20.7 per thousand in the pool to 195, 198, 203 (inoculated region), 629, 591, 734 (leaf margin) and 942, 870, 868 (systemic leaves).
Sequences that differ at fixed positions probably stem from PCR or sequencing errors, and defective variants can be carried along by functional ones.